Reference: patent publication US8906832B2, “Quantitative analysis of carbohydrate-protein interactions using glycan microarrays: determination of surface and solution dissociation constants” (Academia Sinica, priority 2008, dated 2014)

Test system: human monoclonal antibody 2G12
Test: Direct binding assay on glycan microarray, antibody 2G12
Details: carbohydrates printed at 100 μM

Compound: NCCCCCO[C@H]1O[C@H](CO)[C@@H](O)[C@H](O)[C@@H]1O
- interaction with 2G12: no interaction
